Experimental data published in patent publication US20240109955A1.

Key:
Assay in all cases: cell-based or functional assay
[1] = target: SARS-CoV-2 D614G spike protein mutant (D614G) (SARS-CoV-2) (UniProt P0DTC2)
[2] = target: SARS-CoV-2 Omicron BA.4/5 spike protein (S) on lentiviral pseudovirions (SARS-CoV-2) (UniProt P0DTC2)
[3] = target: SARS-CoV-2 spike (S) protein, Kappa variant (B.1.617.1) (SARS-CoV-2) (UniProt P0DTC2)
[4] = target: SARS-CoV-2 spike (S) protein, Delta variant AY.1 (SARS-CoV-2) (UniProt P0DTC2)
[5] = target: SARS-CoV-2 spike protein, Omicron sublineage BA.4/5 (SARS-CoV-2) (UniProt P0DTC2)
[6] = target: SARS-CoV-2 spike protein, Delta variant (B.1.617.2) (SARS-CoV-2) (UniProt P0DTC2)
[7] = target: SARS-CoV-2 spike (S) protein, Omicron sublineage BA.2.75.2 (R346T, F486S) (SARS-CoV-2) (UniProt P0DTC2)

## MX409 (A23-58H/B1-182L Tetravalent) (antibody)
[1]
  IC50 (pseudovirus neutralization): 5.1 pM
  IC80 (pseudovirus neutralization): 0.0113 nM

## B1-182 mAb (antibody)
[2]
  IC50, pseudovirus neutralization (BA.4/5): > 66.7 nM
  IC80, pseudovirus neutralization (BA.4/5): > 66.7 nM

## A19-61.1 (antibody)
[3]
  pseudovirus neutralization IC50 (nM (inferred)): 0.0815
  pseudovirus neutralization IC80 (nM (inferred)): 0.173
[4]
  pseudovirus neutralization IC50 (nM (inferred)): 0.0557
  pseudovirus neutralization IC80 (nM (inferred)): 0.121

## B1-182.1 (antibody)
[3]
  pseudovirus neutralization IC50 (nM (inferred)): 0.0261
  pseudovirus neutralization IC80 (nM (inferred)): 0.086
[4]
  pseudovirus neutralization IC50 (nM (inferred)): 0.008
  pseudovirus neutralization IC80 (nM (inferred)): 0.0192
[5]
  IC50 (pseudovirus neutralization): > 10000 nM
  IC80 (pseudovirus neutralization): > 10 µM
[6]
  IC50 (pseudovirus neutralization): 1.57 nM
  IC80 (pseudovirus neutralization): 7.25 nM

## bebtelovimab (LY1404) (antibody)
[7]
  IC50 (pseudovirus neutralization): 4.98 nM
  IC80 (pseudovirus neutralization): 20.2 nM

## S2E12 (antibody)
[5]
  IC50 (pseudovirus neutralization): 713 nM
  IC80 (pseudovirus neutralization): 3.97 µM
[6]
  IC50 (pseudovirus neutralization): 1.2 nM
  IC80 (pseudovirus neutralization): 2.6 nM

## A19-61 mAb (antibody)
[2]
  IC50, pseudovirus neutralization (BA.4/5): 0.128 nM
  IC80, pseudovirus neutralization (BA.4/5): 0.322 nM

## A23-58H/B1-182L mAb (antibody)
[1]
  IC50 (pseudovirus neutralization): 13.2 pM
  IC80 (pseudovirus neutralization): 0.0337 nM
[2]
  IC50, pseudovirus neutralization (BA.4/5): > 66.7 nM
  IC80, pseudovirus neutralization (BA.4/5): > 66.7 nM

## MX466 (A23-58H/B1-182L Cl-CH1 Tetravalent) (antibody)
[2]
  IC50, pseudovirus neutralization (BA.4/5): > 66.7 nM
  IC80, pseudovirus neutralization (BA.4/5): > 66.7 nM

## A23-58 mAb (antibody)
[2]
  IC50, pseudovirus neutralization (BA.4/5): > 66.7 nM
  IC80, pseudovirus neutralization (BA.4/5): > 66.7 nM
